Pooled drug test results. Numbers come from NIAID ChemDB, via PubChem.

Shared fields: whole-cell or culture tests

ECn: concentration that inhibits the pathogen or its effect by n%.

{"compound": "Cc1ccc(C(C)C)c(O)c1", "agent": "Candida parapsilosis", "strain or isolate": "ATCC 22019", "read by": "broth dilution / turbidity", "read-out": "EC50", "result": "0.34 µM"}
{"compound": "CCNCC1CCN(c2c(F)cn3c(=O)c(C(=O)O)cc(C4CC4)c3c2C)CC1.Cl", "agent": "Candida albicans", "strain or isolate": "CCH442", "read-out": "MIC", "result": ">100 µg/mL"}
{"compound": "O=[N+]([O-])c1cc(C[Se]c2nnnn2Cc2ccccc2)cc([N+](=O)[O-])c1", "agent": "Candida krusei", "strain or isolate": "E28", "read by": "broth dilution", "setting": "24 h", "read-out": "EC80", "result": ">500 µM"}
{"compound": "CN(C/C=C/C#CC(C)(C)C)Cc1cccc2ccccc12", "agent": "Candida guilliermondii", "strain or isolate": "24 clinical isolates", "read by": "broth dilution", "read-out": "MIC90", "result": ">16 µg/mL"}
{"compound": "O=[N+]([O-])c1cc(CSc2nnnn2-c2ccc(Cl)c(Cl)c2)cc([N+](=O)[O-])c1", "agent": "Candida tropicalis", "strain or isolate": "156", "read by": "broth dilution", "setting": "48 h", "read-out": "EC80", "result": ">125 µM"}
{"compound": "O=C(O)c1ccccc1", "agent": "Candida lusitaniae", "strain or isolate": "PYCC 2705", "read-out": "EC50", "result": "0.06 µM"}
{"compound": "Cc1c(N2CC(N)C3(C2)OCCO3)c(F)cn2c(=O)c(C(=O)O)cc(C3CC3)c12.Cl", "agent": "Candida albicans", "strain or isolate": "CCH442", "read-out": "MIC", "result": ">100 µg/mL"}
{"compound": "O=Cc1cccc(O)c1O", "agent": "Candida lusitaniae", "strain or isolate": "PYCC 2705", "read by": "broth dilution / turbidity", "read-out": "EC50", "result": "0.16 µM"}
{"compound": "CCCCCCCCC[C@@H](O)[C@H](C)N", "agent": "Candida glabrata", "strain or isolate": "MTCC 3019", "read-out": "MIC", "result": "9.9 µM"}
{"compound": "C[C@H]1[C@H](O)[C@@H](C)/C=C/C=C/C=C/C=C/C=C/C=C/C=C/[C@H](O[C@@H]2O[C@H](C)[C@@H](O)[C@H](N)[C@@H]2O)C[C@@H]2O[C@](O)(C[C@@H](O)C[C@@H](O)CC[C@H](O)[C@@H](O)C[C@@H](O)CC(=O)O[C@H]1C)C[C@H](O)[C@H]2C(=O)O", "agent": "Candida rugosa", "strain or isolate": "CBS 12", "read by": "broth dilution", "read-out": "MIC", "result": "0.07 µg/mL"}
{"compound": "CCOC(=O)C1C(c2ccc(Cl)cc2)CC(c2ccccc2)=CC12NCCN2", "agent": "Candida spp.", "strain or isolate": "Strains 6 and 6", "read-out": "MIC", "result": "200 µg/mL"}
{"compound": "O=[N+]([O-])c1cc(C[Se]c2nnnn2C2CCCCC2)cc([N+](=O)[O-])c1", "agent": "Candida tropicalis", "strain or isolate": "156", "read by": "broth dilution", "setting": "48 h", "read-out": "EC80", "result": ">500 µM"}
{"compound": "CC(=O)N1CCN(c2ccc(OC[C@H]3CO[C@](Cn4ccnc4)(c4ccc(Cl)cc4Cl)O3)cc2)CC1", "agent": "Candida albicans", "strain or isolate": "Isogenic isolate 5 MDR1 (25X)", "read-out": "MIC", "result": "≤0.008 µg/mL"}
{"compound": "CCOC(=O)C1C(c2ccc(C)cc2)CC(c2ccccc2)=CC12NCCN2", "agent": "Candida neoformans", "read-out": "MIC", "result": "25 µg/mL"}
{"compound": "Cc1c(N2CC3CCCN(C)C3C2)c(F)cn2c(=O)c(C(=O)O)cc(C3CC3)c12.Cl", "agent": "Candida albicans", "strain or isolate": "CCH442", "read-out": "MIC", "result": ">100 µg/mL"}
{"compound": "CCC(C)n1ncn(-c2ccc(N3CCN(c4ccc(OC[C@H]5CO[C@](Cn6cncn6)(c6ccc(Cl)cc6Cl)O5)cc4)CC3)cc2)c1=O", "agent": "Candida glabrata", "strain or isolate": "77 isolates", "read-out": "MIC90", "result": "4 µg/mL"}
{"compound": "C=CCOc1ccc(C2CC(=O)c3c(O)cc(O)cc3O2)cc1", "agent": "Candida spp.", "strain or isolate": "Candida inconspicua", "read by": "agar diffusion / agar", "read-out": "zone", "dose": "100 µg/mL", "result": "0 mm"}
{"compound": "O=C(OC1Cc2c(O)cc(O)cc2OC1c1cc(O)c(O)c(O)c1)c1cc(O)c(O)c(O)c1", "agent": "Candida tropicalis", "strain or isolate": "Clinical isolate 2", "read by": "broth dilution", "read-out": "MIC50", "result": ">128 µg/mL"}
{"compound": "c1ccc([Se][Se]c2ccccc2)cc1", "agent": "Candida dubliniensis", "read by": "broth dilution", "read-out": "MFC", "result": "2–32 µg/mL"}
{"compound": "COc1cc(C[C@H](C)[C@H](C)Cc2ccc(O)c(O)c2)ccc1O", "agent": "Candida albicans", "strain or isolate": "ATCC 10231", "read by": "broth dilution", "read-out": "MIC80", "result": "62.5 µg/mL"}
{"compound": "CCOC(=O)C1C(c2ccccc2)CC(c2ccccc2)=CC12NCCN2", "agent": "Candida neoformans", "read-out": "MIC", "result": "100 µg/mL"}
{"compound": "C[C@@H]1[C@H](O)[C@@H](C)/C=C/C=C/CC/C=C/C=C/C=C/C=C/C(O[C@H]2O[C@H](C)[C@@H](O)[C@H](N)[C@@H]2O)CC2O[C@](O)(CC(O)C(O)CCC(O)CC(O)CC(O)CC(=O)O[C@H]1C)CC(O)C2C(=O)O", "agent": "Candida albicans", "strain or isolate": "ATCC 40277", "read by": "broth dilution", "read-out": "MFC100", "result": "64 µg/mL"}
{"compound": "O=[N+]([O-])c1cc(CSc2nnnn2Cc2ccccc2)cc([N+](=O)[O-])c1", "agent": "Candida krusei", "strain or isolate": "E28", "read by": "broth dilution", "setting": "24 h", "read-out": "EC80", "result": ">500 µM"}
{"compound": "Cc1c(OCC(F)(F)F)ccnc1CS(=O)c1nc2ccccc2[nH]1", "agent": "Candida spp.", "strain or isolate": "Clinical isolates", "read-out": "MIC", "result": "128 µg/mL"}
{"compound": "CNCC1COC2(CCN(c3c(F)cn4c(=O)c(C(=O)O)cc(C5CC5)c4c3C)CC2)O1.Cl", "agent": "Candida albicans", "strain or isolate": "CCH442", "read-out": "MIC", "result": ">100 µg/mL"}
{"compound": "O=C(O)c1cccc(-n2nnnc2SCc2cc([N+](=O)[O-])cc([N+](=O)[O-])c2)c1", "agent": "Candida tropicalis", "strain or isolate": "156", "read by": "broth dilution", "setting": "48 h", "read-out": "EC80", "result": ">500 µM"}
{"compound": "C=CCc1ccc(O)c(-c2ccc(O)c(CC=C)c2)c1", "agent": "Candida albicans", "strain or isolate": "YL 371", "read by": "broth dilution", "read-out": "MIC", "result": "64 µg/mL"}
{"compound": "CC(C)=CCOc1ccc(C2CC(=O)c3c(O)cc(O)cc3O2)cc1", "agent": "Candida dubliniensis", "read by": "agar diffusion / agar", "read-out": "zone", "dose": "100 µg/mL", "result": "0 mm"}
{"compound": "C[C@@H](c1ncncc1F)[C@](O)(Cn1cncn1)c1ccc(F)cc1F", "agent": "Candida tropicalis", "strain or isolate": "54 isolates", "read-out": "MIC90", "result": "0.125 µg/mL"}
{"compound": "CCC(C)n1ncn(-c2ccc(N3CCN(c4ccc(OC[C@H]5CO[C@](Cn6cncn6)(c6ccc(Cl)cc6Cl)O5)cc4)CC3)cc2)c1=O", "agent": "Candida guilliermondii", "strain or isolate": "24 clinical isolates", "read by": "broth dilution", "read-out": "MIC90", "result": "0.25 µg/mL"}
{"compound": "CCOC(=O)C1C(c2ccccc2)CC(c2ccc(OC)cc2)=CC12NCCN2", "agent": "Candida neoformans", "read-out": "MIC", "result": "25 µg/mL"}
{"compound": "CC(C)=CCOc1ccc(C2CC(=O)c3ccc(O)cc3O2)cc1", "agent": "Candida spp.", "strain or isolate": "Candida inconspicua", "read by": "agar diffusion / agar", "read-out": "zone", "dose": "100 µg/mL", "result": "0 mm"}

Repeating the final 2 entries:

compound	agent	strain or isolate	read by	setting	read-out	dose	result
CCOC(=O)C1C(c2ccccc2)CC(c2ccc(OC)cc2)=CC12NCCN2	Candida neoformans				MIC		25 µg/mL
CC(C)=CCOc1ccc(C2CC(=O)c3ccc(O)cc3O2)cc1	Candida spp.	Candida inconspicua	agar diffusion / agar		zone	100 µg/mL	0 mm

Rows are shuffled and stem from different studies. MIC50, MIC90 and the like: level of inhibition, or share of isolates inhibited. Blank or dashed fields: not listed here. Zone: diameter of growth inhibition. a–b is a range or a potency band.